biological target: Human immunodeficiency virus type 1 reverse transcriptase (Human immunodeficiency virus 1) (UniProt Q72547); assay: Ratio Kpol to Kd for wild type HIV 1 reverse transcriptase
How it was run: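 Pre-steady-state single-turnover incorporation by purified WT HIV-1 RT (200 nM, final), pre-incubated with 20 nM T/P substrate, then mixed with nucleotide at varying concentrations plus metal ions. Reaction at 37 °C in 50 mM Tris-HCl pH 7.5, 50 mM KCl, 10 mM MgCl₂. Aliquots quenched in gel loading buffer at 1-60 min. 20mer→21mer conversion quantified on gel. k_obs from burst fit, k_pol and K_d from hyperbolic fit, efficiency taken as k_pol/K_d.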

Compound | Ratio [µM⁻¹ min⁻¹]
[N-]=[N+]=N[C@@H]1C[C@@H](n2cnc3c(O)nc(N)nc32)O[C@H]1COP(=O)(O)OP(=O)(O)OP(=O)(O)O | 0.458
Cc1cn([C@@H]2O[C@H](COP(=O)(O)OP(=O)(O)OP(=O)(O)O)[C@@H](O)[C@H]2O)c(=O)[nH]c1=O [THYMIDINE_TRIPHOSPHATE] | 231
Nc1nc2c(ncn2[C@H]2C[C@H](O)[C@@H](COP(=O)(O)OP(=O)(O)OP(=O)(O)O)O2)c(=O)[nH]1 | 108

Reference: ChEMBL document CHEMBL1828605, “Synthesis, antiviral activity, cytotoxicity and cellular pharmacology of l-3'-azido-2',3'-dideoxypurine nucleosides” (Eur J Med Chem, 2011)
